The values that follow come from PubChem BioAssay AID624416 (The Scripps Research Institute Molecular Screening Center, 2012).

For orientation: inhibition means the drop in the measured response relative to a control, in per cent.

Only a part is listed here, and it is no random draw. Calls of active or inactive are those of the source. No stated cut-off is given here; in the data, active means inhibition above about 8.5%; inactive means the rest.

The assay has as its system HIV-1 gp120 / PG9 antibody interaction. The experiment in a line: binders of HIV-1 gp120 antibody PG9, primary screen, biochemical, TR-FRET (AID 624416). Conditions: TR-FRET gp120-PG9 antibody binding; at 6.7 µM; active compounds read high. (Time-resolved FRET reads energy transfer from a long-lived donor to a nearby acceptor.)
As to `CCCCn1nnnc1C(c1ccnc2ccccc12)N1CCC(n2c(=O)[nH]c3ccccc32)CC1` (stereo unspecified), the inhibition is inactive: -0.21%. The same measure for `CCC(c1nnnn1C(C)(C)C)N1CCC(n2c(=O)[nH]c3ccccc32)CC1` (stereo unspecified): inactive: 0.92%; for `O=C(NCC1(N2CCOCC2)CCCCC1)c1cc(F)c(F)cc1Cl`: inactive: 0.37%. The result for `COc1cc(OC)c(C(=O)NCC2(N(C)C)CCCCC2)cc1OC` reads inactive: -0.83%; that for `CN(C)c1cccc(C(=O)NCC2(N3CCCCC3)CCCCC2)c1`, inactive: 0.18%; that for `COc1ccc(CN(CCCl)CCCl)cc1Cl`, inactive: -0.48%.

For the molecule `CC(C)c1ccc(NC2CCN(C(=O)OC(C)(C)C)CC2)cc1`, the inhibition is inactive: 0.05%.

Regarding `CCCOc1ccc(C(=O)NCC2(N(C)C)CCCCC2)cc1OC`, the inhibition was inactive: -1.92%.

As for `Cc1ccc(C(=O)NCC2(N(C)C)CCCCC2)o1`, the inhibition is inactive: -0.43%. The same measure for `COc1ccc(C(c2nnnn2C2CCCC2)N2CCC(n3c(=O)[nH]c4ccccc43)CC2)cc1` (stereo unspecified): inactive: 1.28%; for `O=C(NCC1(N2CCCCC2)CCCCC1)c1cncc(Br)c1`: inactive: 0.2%. The same measure for `CN1CCC(Nc2cccc(F)c2)CC1`: inactive: 0.92%. The same measure for `CSc1ccc(C(=O)NCC2(N3CCOCC3)CCCCC2)cc1`: inactive: -3.47%. With `O=C(NCC1(N2CCCCC2)CCCCC1)c1cccc([N+](=O)[O-])c1`, the inhibition is inactive: -1%. The same measure for `N#CC1(Nc2ccccc2)CCN(CCc2ccccc2)CC1`: inactive: -0.56%; for `O=c1[nH]c2ccccc2n1C1CCN(C(c2ccccc2OC(F)(F)F)c2nnnn2C2CCCC2)CC1` (stereo unspecified): inactive: -0.37%; for `CCN1CCC(Nc2ccc(Cl)cc2)CC1`: inactive: -0.99%.

For `O=C(NCC1(N2CCCCC2)CCCCC1)c1ccc(OC(F)F)cc1`, the inhibition was inactive: -1.08%. With `CC(C)(C)n1nnnc1C(c1ccccc1OC(F)(F)F)N1CCC(n2c(=O)[nH]c3ccccc32)CC1` (stereo unspecified), the inhibition was inactive: 0.13%.

Consider `CCCCn1nnnc1C(c1cccc2ccccc12)N1CCC(n2c(=O)[nH]c3ccccc32)CC1` (stereo unspecified), for which the inhibition was inactive: -0.15%. The same measure for `CN1CCN(CCOC(=O)C(O)(c2ccccc2)c2ccccc2)CC1`: inactive: -0.73%; for `CC(C)c1ccc(C(=O)NCC2(N3CCOCC3)CCCCC2)cc1`: inactive: 0.96%. The same measure for `COc1ccc(NC2CCN(C(=O)OC(C)(C)C)CC2)cc1`: inactive: 0.06%. The result for `COc1cc(C(=O)NCC2(N3CCCCC3)CCCCC2)ccc1OC(F)F` reads inactive: -1.15%; that for `O=C(NCC1(N2CCOCC2)CCCCC1)c1cc(=O)[nH]c2ccccc12`, inactive: 0.17%. As to `O=C(NCC1(N2CCCCC2)CCCCC1)c1cccc(C(F)(F)F)c1`, the inhibition was inactive: 0.71%.
